# Results from patent publication US20160303056A1, “FASTING MIMICKING DIET (FMD) AND GLUCOSE LOWERING DRUGS PROTECT NORMAL CELLS AND GENERATE CANCER SENSITIZING CONDITIONS IN RESPONSE TO STANDARD AND HIGH GLUCOSE CONDITIONS INDUCED BY RAPAMYCIN AND DEXAMETHASONE” (UNIVERSITY OF SOUTHERN CALIFORNIA, priority 2015, published 2016).
# What was measured:
# [1] = Circulating glucose levels in mice given rapamycin or dexamethasone, with or without insulin, STS or FMD; format: in vivo, mouse (C57BL/6); settings: mice on Rapa or Dexa; insulin every 12 h for 48 h, or FMD, before DXR (FIG. 1B)
# C57BL/6 mice = settings: mouse, in vivo
substance,measurement,setting,value
insulin,reduction of glucose levels / hyperglycemic state induced by rapamycin and dexamethasone,[1],significantly reduced
same,reversal of the sensitizing effect of rapamycin/dexamethasone,C57BL/6 mice,partially reversed
same,toxicity of doxorubicin,C57BL/6 mice,can reverse the toxicity of doxorubicin
